What all share (experiment): SPR; average of two replicate measures ± one standard deviation
(In general: In SPR one partner is held on a chip, and binding of the other changes the refractive index at the surface.)

Test [1] deals with BG505 F14 SOSIP (HIV-1 (clade A BG505)).
Test [2] concerns the target BG505 Vt8 SOSIP (HIV-1 (clade A BG505)).
For test [3], the target named is BG505 F14/Vt8 SOSIP (HIV-1 (clade A BG505)).
For test [4], the target named is BG505 SOSIP (HIV-1 (clade A BG505)).

As a reminder, the koff is a measure of how fast the partners let go of each other. What is called kon is a measure of how fast the partners come together. Consider “soluble CD4 (sCD4) (from UniProt P01730 26-390) (receptor)”, for which the off-rate constant (koff) worked out at 0.00113 s⁻¹ in test [1], 0.000781 s⁻¹ in test [2], 0.000452 s⁻¹ in test [3] and 0.00061 s⁻¹ in test [4]. In addition, the kon in test [1] turned out to be 17200 M⁻¹ s⁻¹; in test [2] it was 9440 M⁻¹ s⁻¹; in test [3], 29200 M⁻¹ s⁻¹; in test [4], 11200 M⁻¹ s⁻¹.

These data come from patent publication US12138304.
